Experimental findings from PubChem BioAssay AID1448 (The Scripps Research Institute Molecular Screening Center, 2008) are described below.

Sequences of proteins named here, by UniProt entry; tags and fusion partners are left off. A change or cut given only in a name is not applied to a line headed by its entry.
UniProt Q8TDD5: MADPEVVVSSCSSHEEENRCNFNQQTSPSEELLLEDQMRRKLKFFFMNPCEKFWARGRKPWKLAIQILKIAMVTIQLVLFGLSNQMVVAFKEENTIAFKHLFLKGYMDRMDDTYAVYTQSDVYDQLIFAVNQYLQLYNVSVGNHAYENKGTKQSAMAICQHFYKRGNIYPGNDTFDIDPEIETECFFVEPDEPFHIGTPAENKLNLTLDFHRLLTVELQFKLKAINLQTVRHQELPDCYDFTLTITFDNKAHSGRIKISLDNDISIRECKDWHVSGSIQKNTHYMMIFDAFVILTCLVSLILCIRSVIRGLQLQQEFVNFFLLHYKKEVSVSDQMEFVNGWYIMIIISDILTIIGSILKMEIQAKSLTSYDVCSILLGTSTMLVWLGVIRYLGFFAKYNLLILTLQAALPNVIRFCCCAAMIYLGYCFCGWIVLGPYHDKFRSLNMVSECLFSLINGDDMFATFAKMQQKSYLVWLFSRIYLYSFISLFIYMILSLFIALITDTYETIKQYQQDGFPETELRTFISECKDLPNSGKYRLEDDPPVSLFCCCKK

SMILES strings stand for the structures. This is a selection; strong and weak results do not stand in their true shares. Calls of active or inactive are those of the source.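 The calls were made as follows: active = activation above its plate's cutoff, the mean activation of the plate's test wells plus 3 SD (cut at about 12% in these data); inactive = the rest.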

This test deals with Mucolipin-3 (Homo sapiens) (UniProt Q8TDD5). In words: human TRPML3 channel agonists, primary screen, cell-based, HEK293 TRPML3-YFP, Fluo-8 calcium fluorescence, 3 µM (AID 1448).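 Also: 0% = DMSO only wells and 100% = carbachol wells.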 The note with it: at 3 µM, stronger effect = higher value, 100% = the carbachol control signal. Summed up: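 system = HEK293 cells stably carrying human TRPML3-YFP | doses = one concentration, 3 µM nominal, 0.3% DMSO | timing = dye loading 1 h 37 °C then 30 min ambient, 125 s read | detection = Fluo-8 calcium dye fluorescence, ex 470-495, em 515-575 nm | benchmarks = high control carbachol 87 µM, low control DMSO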
Regarding `COc1ccc(N/C(=N/P(=O)(N2CCOCC2)N2CCOCC2)N2CCOCC2)cc1`, the activation is inactive: 0.95%.

Regarding `O=[As](O)(c1ccc(O)cc1)c1ccccc1O`, the activation is inactive: -0.04%.

As to `C[As](=O)(O)c1cccc(C(=O)O)c1`, the activation was inactive: 0.66%.

Turning to `Cc1ccc(OP(=O)(Nc2ccc([N+](=O)[O-])cn2)Oc2ccc(C)cc2)cc1`, the activation is inactive: 0.35%.

In the case of `Cc1ccc2nc3c(c(C)c2c1)CC(C(Cl)Cl)S3` (stereo not given), the activation was inactive: -0.36%.

As to `ClCCSc1nnc(-c2cccnc2)o1`, the activation is inactive: 0.81%.

With `CC(C)c1ccc(OP(=O)(Nc2ccccn2)Oc2ccccc2F)cc1` (stereo not given), the activation was inactive: -0.01%.

Turning to `O=[N+]([O-])c1cc([N+](=O)[O-])c(-c2ccn[nH]2)s1`, the activation was inactive: 0.1%.

`CC(C)NC(=O)NP(=O)(Oc1ccccc1)Oc1ccccc1`: the activation is inactive: 0.48%.

Take `CCN(CC)C(=S)SC(NC=O)C(Cl)(Cl)Cl` (stereo not given): the activation was inactive: 0.28%.

Turning to `CCOC(=O)Nc1ccc([As](=O)(O)O)c(O)c1`, the activation was inactive: 0.74%.

On to `Cc1cc(SC(NC(=O)c2ccccc2)C(Cl)(Cl)Cl)nc(C(C)C)n1` (stereo not given), for which the activation is inactive: 0.43%.

For `CCOC(=O)Nc1cccc([As](=O)(O)O)c1`, the activation was inactive: -0.68%.

As for `Cc1cc(SC(NC=O)C(Cl)(Cl)Cl)ncn1` (stereo not given), the activation is inactive: -0.2%.

For `O=P(Nc1ccccn1)(c1cccc2ccccc12)c1cccc2ccccc12`, the activation was inactive: 1.37%.

As to `O=[N+]([O-])c1ccc(Nc2ccc(Oc3ccc([N+](=O)[O-])cc3[N+](=O)[O-])cc2)c([N+](=O)[O-])c1`, the activation was inactive: 0.67%.

For the molecule `COP1(=S)c2c(C)nn(CCC#N)c2N=C(c2ccc(F)cc2)N1C` (stereo not given), the activation was inactive: 1.42%.

With `O=C(COc1ccccc1)OC1CN2CCC1CC2` (stereo not given), the activation is inactive: 0.21%.

As for `CCOC(=O)c1ccc(NC(=O)C(C)(CCl)SC)cc1` (stereo not given), the activation was inactive: 1.44%.

As for `CCC(C)N(CC(C)C)C(=S)SC(NC(C)=O)C(Cl)(Cl)Cl` (stereo not given), the activation is inactive: -0.11%.
